Anti-infective test results gathered from many reports (values: NIAID ChemDB through PubChem).

All rows: whole-cell or culture tests; agent: Candida albicans; read by: agar diffusion; measure: zone

Neighbouring rows are from separate reports.

CCCCc1nc(Cl)c(-c2cc(-c3cccs3)nc3c2C(=O)c2ccccc2-3)n1Cc1ccccc1 ; tested at: 10 µg/disc ; strain or isolate: MTCC 7253 ; value: 10 mm
Cc1ccc(N2NOC(=O)C2S(=O)(=O)Nc2nc(-c3ccc(Cl)cc3)cs2)cc1 ; tested at: 250 µg/mL ; strain or isolate: MTCC 227 ; value: 24 mm
O=C(O)c1cn(C2CC2)c2cc(N3CCNCC3)c(F)cc2c1=O ; tested at: 5 µg ; strain or isolate: ATCC 10231 ; value: 6 mm
C[C@@H]1[C@H](O)[C@@H](C)/C=C/C=C/CC/C=C/C=C/C=C/C=C/C(O[C@H]2O[C@H](C)[C@@H](O)[C@H](N)[C@@H]2O)CC2O[C@](O)(CC(O)C(O)CCC(O)CC(O)CC(O)CC(=O)O[C@H]1C)CC(O)C2C(=O)O ; tested at: 250 µg/mL ; strain or isolate: MTCC 227 ; value: 22 mm
CCCCc1nc(Cl)c(-c2cc(-c3ccccc3)nc3c2C(=O)c2ccccc2-3)n1Cc1ccccc1 ; tested at: 10 µg/disc ; strain or isolate: MTCC 7253 ; value: 10 mm
O=c1c(O)c(-c2ccccc2)oc2ccc(Cl)cc12 ; tested at: 100 µg/mL ; value: 14 mm
Cc1ccc(N2NOC(=O)C2S(=O)(=O)Nc2nc3ccc(Cl)cc3s2)cc1 ; tested at: 250 µg/mL ; strain or isolate: MTCC 227 ; value: 20 mm
CC(=O)Oc1c(-c2ccc(Cl)cc2)oc2ccccc2c1=O ; tested at: 100 µg/mL ; value: 17 mm
CCn1cc(C(=O)O)c(=O)c2ccc(C)nc21 ; tested at: 30 µg ; strain or isolate: WILD TYPE ; value: 6 mm
Cc1ccc(N2NOC(=O)C2S(=O)(=O)Nc2nc(-c3c(Cl)cccc3Cl)cs2)cc1 ; tested at: 250 µg/mL ; strain or isolate: MTCC 227 ; value: 18 mm
CN[C@@H]1[C@@H](O)[C@@H](O[C@@H]2[C@@H](O)[C@H](O[C@H]3O[C@H](CN)CC[C@H]3N)[C@@H](N)C[C@H]2N)OC[C@]1(C)O ; tested at: 10 µg ; strain or isolate: WILD TYPE ; value: 6 mm
CC(=O)Oc1c(-c2ccco2)oc2ccc(Cl)cc2c1=O ; tested at: 100 µg/mL ; value: 25 mm
C(/C=C/c1ccccc1)=NCCNCCN=C/C=C/c1ccccc1.N#C[S][Hg][S]C#N ; tested at: 20000 µg/mL ; value: 26 mm
COc1ccc(-c2oc3ccc(Cl)cc3c(=O)c2OC(C)=O)cc1 ; tested at: 100 µg/mL ; value: 20 mm
CCCCc1nc(Cl)c(-c2cc(-c3cccc(Br)n3)nc3c2C(=O)c2ccccc2-3)n1Cc1ccccc1 ; tested at: 10 µg/disc ; strain or isolate: MTCC 7253 ; value: 11 mm
C(/C=C/c1ccccc1)=NCCNCCN=C/C=C/c1ccccc1.[Br][Hg][Br] ; tested at: 10000 µg/mL ; value: 23 mm
CC(=O)Oc1c(-c2ccc(F)cc2)oc2ccc(Cl)cc2c1=O ; tested at: 100 µg/mL ; value: 19 mm
CCCCc1nc(Cl)c(-c2cc(-c3ccc(OC)cc3)nc3c2C(=O)c2ccccc2-3)n1Cc1ccccc1 ; tested at: 10 µg/disc ; strain or isolate: MTCC 7253 ; value: 12 mm

The last 2 rows once more:

| compound | tested at | strain or isolate | value |
|---|---|---|---|
| CC(=O)Oc1c(-c2ccc(F)cc2)oc2ccc(Cl)cc2c1=O | 100 µg/mL | - | 19 mm |
| CCCCc1nc(Cl)c(-c2cc(-c3ccc(OC)cc3)nc3c2C(=O)c2ccccc2-3)n1Cc1ccccc1 | 10 µg/disc | MTCC 7253 | 12 mm |

Zone: diameter of growth inhibition. An empty or dashed field is not shown.